Experimental findings from PubChem BioAssay AID651610 (Broad Institute, 2012) are described below.

Only a part is listed here, and it is no random draw. Active and inactive are the calls of the source.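 The calls were made as follows: active = mean replicate inhibition score of at least 50 and every replicate individually at or above 50; inconclusive = only one of the two criteria met; inactive = mean below 50 and not all replicates reaching 50.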

A short description of the test: inhibitors of HIV-1 Env-driven cell-cell fusion, primary screen, HeLa-JRFL effector, CEM21 target cells, luciferase (AID 651610).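 Also: 0% = plate neutral controls and 100% = maraviroc near 300 nM.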 To be noted: at 12.3 µM, hits give high values.
Take `O=C(OC1CN2CCC1CC2)c1ccccc1` (stereo unspecified): the inhibition was inactive: 7.33%.
Take `CC(=O)NC(SC(=S)N(CC(C)C)CC(C)C)C(Cl)(Cl)Cl` (stereo unspecified): the inhibition is inactive: -4.48%.
As to `Cc1ccc(OP(=O)(Nc2ccccn2)Oc2ccc(C)cc2)cc1`, the inhibition is inactive: 2.2%.
As for `Cc1c([N+](=O)[O-])cc([N+](=O)[O-])c(Br)c1[N+](=O)[O-]`, the inhibition is inactive: -9.07%.
`COc1ccc(NP(C)(=O)Oc2ccccc2OC)cc1` (stereo unspecified): the inhibition is inactive: -8.69%.
Consider `C[C@H]1OP(=O)(Oc2ccccc2)[C@H](O)[C@H](O)[C@H]1N=[N+]=[N-]` (stereo partly specified), for which the inhibition was inactive: 0.014%.
With `O=P(Nc1nc2ccccc2s1)(c1ccccc1)c1ccccc1`, the inhibition is inactive: -0.252%.
For `CN(C)C1(CNC(=O)c2ccc(Cl)c(S(N)(=O)=O)c2)CCCCC1` the value was inactive: 12.8%; for `O=P(Nc1ccccn1)(c1ccc(Br)cc1)c1ccc(Br)cc1`, inactive: 25.6%.
For the compound `COc1ccc(N)c([N+](=O)[O-])c1[N+](=O)[O-]`, the inhibition was inactive: -10.8%.
Consider `COc1ccc(OP(C)(=O)Nc2cccc(Br)c2)cc1` (stereo unspecified), for which the inhibition was inactive: -87.3%.
For `O=C(OC1CN2CCC1CC2)c1cccc(Cl)c1` (stereo unspecified), the inhibition is inactive: -75.4%.
To `C(Cc1nn[nH]n1)Cc1nn[nH]n1` belongs inactive: 23.8%; to `Nc1ccc([As](=O)(O)c2ccc([N+](=O)[O-])cc2)cc1`, inactive: -12.6%.
For the compound `Cc1c(C(c2ccc3c(c2)OCO3)c2c(C)n(C)n(-c3ccccc3)c2=O)c(=O)n(-c2ccccc2)n1C.O=[N+]([O-])c1cc([N+](=O)[O-])c(O)c([N+](=O)[O-])c1`, the inhibition is inactive: -4.18%.
With `C/C(N)=N\P(=O)(OCc1ccccc1)OCc1ccccc1`, the inhibition is inactive: 17.7%.
For `Cc1cc(-c2cccc3ccccc23)c(C)cn1.O=[N+]([O-])c1cc([N+](=O)[O-])c(O)c([N+](=O)[O-])c1` the value was inactive: -10.8%.
Consider `O=[N+]([O-])c1cc([N+](=O)[O-])c(NCC2CCS(=O)(=O)C2)c([N+](=O)[O-])c1` (stereo unspecified), for which the inhibition is inactive: 2.35%.
For `O=[As](O)(c1ccccc1)c1ccc(O)cc1` the value was inactive: -6.55%.
On to `O=[N+]([O-])c1ccc(OP2(=O)COCCO2)cc1` (stereo unspecified), for which the inhibition was inactive: -6.04%.
In the case of `CC(=O)NC(SC(=S)N(C)C)C(Cl)(Cl)Cl` (stereo unspecified), the inhibition was inactive: -19.4%.
Take `O=[N+]([O-])c1ncn(CCn2cnc([N+](=O)[O-])n2)n1`: the inhibition is inactive: -0.856%.
`c1nnnn1CCn1cnnn1`: the inhibition was inactive: -140%.
With `CCOP(C)(=S)SCC(=O)NC(C)(CC)C(=O)O` (stereo unspecified), the inhibition was inactive: 2.86%.
As for `CC(C)C(=O)NC(Sc1ccccc1)C(Cl)(Cl)Cl` (stereo unspecified), the inhibition was inactive: -119%.
Take `CP(=O)(Nc1ccc(SC(F)(F)F)cc1)Oc1ccc(F)cc1` (stereo unspecified): the inhibition is inactive: 14.2%.
As for `O=[N+]([O-])c1cc([N+](=O)[O-])c(C(F)(F)F)c([N+](=O)[O-])c1O`, the inhibition was inactive: -8.15%.
Regarding `CC(C)(C)C(=O)NC(Sc1ncccn1)C(Cl)(Cl)Cl` (stereo unspecified), the inhibition was inactive: 3.95%.
With `Clc1n[nH]nc1-c1nn[nH][15n]1`, the inhibition is inactive: -133%.
For the compound `O=P1(N(CCCl)CCCl)NCCC(C(F)(F)F)O1` (stereo unspecified), the inhibition is inactive: -24.7%.
Regarding `CN(Cc1cccnc1)C(=O)COc1ccc(Cl)c(Cl)c1.O=[N+]([O-])c1cc([N+](=O)[O-])c(O)c([N+](=O)[O-])c1`, the inhibition was inactive: -3.47%.
As for `O=[N+]([O-])c1cc([N+](=O)[O-])c(-n2nnc3ccccc32)c([N+](=O)[O-])c1`, the inhibition was inactive: 9.19%.
Take `Nc1ccc(CCCCOc2ccccc2)cc1.O=[N+]([O-])c1cc([N+](=O)[O-])c(O)c([N+](=O)[O-])c1`: the inhibition is inactive: 0.247%.
To `CCOP(=O)(NC(=NC(C)c1ccccc1)NC(C)c1ccccc1)OCC` (stereo unspecified) belongs inactive: -5.93%; to `CCC1=CC2Cc3nc4ccc(Cl)cc4c(N)c3C(C1)C2` (stereo unspecified), inactive: -6.22%; to `O=P1(Nc2ccccn2)COc2ccccc2OC1`, inactive: -128%.
For `O=C(O)C(O)c1ccc(N(CCCl)CCCl)cc1.c1ccncc1` (stereo unspecified) the value was inactive: 20.6%; for `CCOP(=O)(Nc1ccc(C)cn1)OCC`, inactive: 2.59%.
For `CN(CCCl)Cc1cc(Cl)c(NC2=NCCN2)c(Cl)c1` the value was inactive: 14%.
Turning to `Cc1ccc(S(=O)(=O)N(CCCN)CCCc2c(C)nc(N)[nH]c2=O)cc1.O=[N+]([O-])c1cc([N+](=O)[O-])c(O)c([N+](=O)[O-])c1`, the inhibition is inactive: 10.8%.
`CC(C)/C=N\N=C(\N)N[N+](=O)[O-]`: the inhibition was inactive: -13.3%.
Take `Cc1nc2ccc3ccccc3c2s1.O=[N+]([O-])c1cc([N+](=O)[O-])c(O)c([N+](=O)[O-])c1`: the inhibition was inactive: -283%.
To `O=[N+]([O-])c1cc([N+](=O)[O-])c(-c2cnn(-c3ccccc3)c2)c([N+](=O)[O-])c1` belongs inactive: -2.83%; to `COc1ccccc1CNC(=O)COC(=O)C(O)(c1ccccc1)c1ccccc1`, inactive: -9.75%.
Consider `CCOC(=O)C(CC)C1=NC(C)(C)Cc2ccccc21.O=[N+]([O-])c1cc([N+](=O)[O-])c(O)c([N+](=O)[O-])c1` (stereo unspecified), for which the inhibition is inactive: 11.5%.
For `CN(C)C1(CNC(=O)c2ccc(S(C)(=O)=O)cc2)CCCCC1` the value was inactive: 5.87%.
With `O=[N+]([O-])c1cc([N+](=O)[O-])c(Nc2nnnn2CCO)c([N+](=O)[O-])c1`, the inhibition was inactive: 7.55%.
For `O=C(/C=C/c1ccccc1)OC1CN2CCC1CC2` (stereo unspecified) the value was inactive: 14.5%; for `Cc1ccc(C(=O)OC2CN3CCC2CC3)cc1` (stereo unspecified), inactive: -3.83%; for `CC1CCC(C(C)C)C(OP(=O)(Nc2ccccn2)c2ccccc2)C1` (stereo unspecified), inactive: 30.4%.
For `CCCOc1ccc(NP(C)(=O)Oc2ccc(Cl)cc2)cc1` (stereo unspecified), the inhibition is inactive: 5.82%.
As for `CP(=O)(Nc1ccc(SC(F)(F)F)cc1)Oc1ccccc1` (stereo unspecified), the inhibition is inactive: 27%.
For the compound `Nc1cccc([As](=O)(O)c2ccccc2)c1`, the inhibition is inactive: 5.02%.
As for `COc1ccc(-c2ccccn2)cc1.O=[N+]([O-])c1cc([N+](=O)[O-])c(O)c([N+](=O)[O-])c1`, the inhibition was inactive: -32.3%.
For `Cc1ccc(OCC(=O)OC2CN3CCC2CC3)cc1` (stereo unspecified) the value was inactive: -113%.
Turning to `O=[As](O)(c1cccs1)c1cccs1`, the inhibition was inactive: 14.4%.
Consider `NS(=O)(=O)c1cccc(NC(=O)COC(=O)C(O)(c2ccccc2)c2ccccc2)c1`, for which the inhibition is inactive: -0.175%.
`O=P1(Nc2ccc(Br)cn2)COc2ccccc2OC1`: the inhibition was inactive: -9.28%.
For `CN1CCCCC1COC(=O)C1(O)c2ccccc2CCc2ccccc21` (stereo unspecified), the inhibition is inactive: 0.559%.
For `COc1ccccc1OP(C)(=O)Nc1c(C)cccc1C` (stereo unspecified) the value was inactive: -69.7%; for `O=P1(Nc2ncccn2)COc2ccccc2OC1`, inactive: -12.3%.
Take `O=C(O)COc1ccc([As](=O)(O)O)cc1[N+](=O)[O-]`: the inhibition was inactive: 1.94%.
For `Nc1ccccc1[As](=O)(O)c1ccccc1` the value was inactive: 3.51%; for `O=P(Nc1nccs1)(Oc1ccccc1)Oc1ccccc1`, inactive: -3.02%; for `O=C(O)c1cccc(Nc2c([N+](=O)[O-])cc([N+](=O)[O-])cc2[N+](=O)[O-])c1`, inactive: -3.27%.
Take `CN(C(=O)Cc1ccccc1)[C@@H]1CC[C@]2(CCCO2)C[C@H]1N1CCCC1`: the inhibition was inactive: -160%.
For `N#CCCN(C(=O)COC(=O)C(O)(c1ccccc1)c1ccccc1)c1ccc(F)cc1`, the inhibition was inactive: -26.1%.
With `CC1=NCCc2c1[nH]c1ccccc21.O=[N+]([O-])c1cc([N+](=O)[O-])c(O)c([N+](=O)[O-])c1`, the inhibition was inactive: 3.07%.
To `CN(C(=O)Cc1ccc(Cl)c(Cl)c1)[C@H]1CC[C@@]2(CCCO2)C[C@@H]1N1CCCC1` belongs inactive: 7.28%; to `O=[N+]([O-])c1ccc2c(c1)nnn2O`, inactive: -5.9%; to `CN(C)C(=O)c1cc([N+](=O)[O-])cc2c1-c1c(cc([N+](=O)[O-])cc1[N+](=O)[O-])C2=O`, inactive: -65.9%.
To `NC(=O)Nc1ccc([As](=O)(O)O)cc1` belongs inactive: -1.72%; to `O=[As](O)(c1cccc(O)c1)c1cccc(O)c1`, inactive: 1.09%.
Take `CCOC(=O)c1ccc(NP(C)(=O)Oc2cc(C)cc(C)c2)cc1` (stereo unspecified): the inhibition was inactive: -12.3%.
To `O=C(OC1CN2CCC1CC2)c1ccc(Cl)cc1` (stereo unspecified) belongs inactive: -5.87%; to `COc1ccccc1OP(C)(=O)Nc1cccc(Br)c1` (stereo unspecified), inactive: 30.8%; to `CS(=O)(=O)c1ccc(Cl)c(NC(=O)COC(=O)C(O)(c2ccccc2)c2ccccc2)c1`, inactive: 9%.
Turning to `O=[As](O)(O)c1cccnc1`, the inhibition is inactive: 8.28%.
Regarding `COc1cc(C(=O)NCC2(N3CCOCC3)CCCCC2)cc(Cl)c1OC(C)C`, the inhibition was inactive: 7.07%.
For `CCOP(=O)(Nc1cccc2ccccc12)OCC` the value was inactive: 28.6%.
For `Cc1ccc(NCCc2c([N+](=O)[O-])cc([N+](=O)[O-])cc2[N+](=O)[O-])cc1` the value was inactive: -1.02%.
Take `Nc1cccc2c([As](=O)(O)O)cccc12`: the inhibition was inactive: 8.52%.
For `CP(=O)(Nc1cccc(Br)c1)Oc1ccccc1` (stereo unspecified), the inhibition is inactive: 3.45%.
To `CCCOP(=S)(Nc1nc(N)cc(=O)[nH]1)OCCC` belongs inactive: -16.2%; to `O=P1(N(CCCl)CCCl)Nc2ccccc2N1`, inactive: 11.9%; to `O=P1(N(CCCl)CCCl)OCCCN1CCCl` (stereo unspecified), inactive: -21.7%.
For the compound `COc1cc(I)ccc1[As](=O)(O)O`, the inhibition is inactive: 6.13%.
For the compound `COc1ccc2nc(NP(=O)(c3ccccc3)c3ccccc3)sc2c1`, the inhibition was inactive: 6.24%.
As to `Cc1c2c(nc3ccccc13)SC(C(Cl)Cl)C2` (stereo unspecified), the inhibition was inactive: -1.26%.
As for `Cc1cc(=O)[nH]c(N[N+](=O)[O-])n1`, the inhibition was inactive: 0.086%.
As for `CCN(CC)CCCOC(=O)C(O)(c1ccccc1)c1ccccc1`, the inhibition is inactive: 10.1%.
